Experimental data: PubChem BioAssay AID1259414 (Drosophila RNAi Screening Center, 2018)
The screen tested about 24,000 reagents; shown is an unselected part of those that have a named target and a result. In the full data, about 1,210 (5%) got an active call. 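Inactive calls also include excluded dsRNAs with several or no targets, genes unexpressed in JW18, and well A1, regardless of score.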 Unmarked entries are inactive. Names joined by + are all predicted targets of the reagent.

- Screen: 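Host factors increasing or decreasing Wolbachia levels in cultured fly cells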 (primary screen)
- Cells: Drosophila JW18 cells infected with Wolbachia
- Reagents: long dsRNA against Drosophila genes, 0.25 µg dsRNA per well of a 384-well plate
- Time to read-out: 5 days
- Treatment: cells persistently infected with Wolbachia before knock-down; no added drug
- Measurement: 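Automated imaging of bacterial rRNA staining divided by host cell count, reported as plate-normalised robust z-score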
- Direction: Wolbachia per cell robust z: higher = more Wolbachia per host cell than the plate typical
- Active means: 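Hit when robust z is 1.5 or more, or -1.5 or less, in at least two of three replicates; excludes dsRNAs with several or no targets, genes not expressed in JW18 and well A1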

CG34370 [DRSC03913] | Wolbachia per cell robust z, rep 1 = 0.575; Wolbachia per cell robust z, rep 2 = 0.278; Wolbachia per cell robust z, rep 3 = 1.14
CG34370 [DRSC04142] | Wolbachia per cell robust z, rep 1 = 0.775; Wolbachia per cell robust z, rep 2 = -1.93; Wolbachia per cell robust z, rep 3 = 0.733
CG34370 [DRSC04143] | Wolbachia per cell robust z, rep 1 = -0.882; Wolbachia per cell robust z, rep 2 = -0.242; Wolbachia per cell robust z, rep 3 = -1.1
CG34370 [DRSC04144] | Wolbachia per cell robust z, rep 1 = 0.546; Wolbachia per cell robust z, rep 2 = -1.13; Wolbachia per cell robust z, rep 3 = -1.01
CG34370 [DRSC26263] | Wolbachia per cell robust z, rep 1 = 0.0738; Wolbachia per cell robust z, rep 2 = -1.01; Wolbachia per cell robust z, rep 3 = 0.0245
CG34370 [DRSC37760] | Wolbachia per cell robust z, rep 1 = -0.364; Wolbachia per cell robust z, rep 2 = -1.42; Wolbachia per cell robust z, rep 3 = -1.24
CG9205 [DRSC08642] | Wolbachia per cell robust z, rep 1 = 0.183; Wolbachia per cell robust z, rep 2 = -0.206; Wolbachia per cell robust z, rep 3 = -8.32
Acam + CG17770 [DRSC29529] | Wolbachia per cell robust z, rep 1 = 0.348; Wolbachia per cell robust z, rep 2 = 0.702; Wolbachia per cell robust z, rep 3 = -0.988
CG16896 [DRSC04284] | Wolbachia per cell robust z, rep 1 = 0.606; Wolbachia per cell robust z, rep 2 = -0.853; Wolbachia per cell robust z, rep 3 = 0.00618
CG33645 [DRSC37853] | Wolbachia per cell robust z, rep 1 = -0.00277; Wolbachia per cell robust z, rep 2 = -5.19; Wolbachia per cell robust z, rep 3 = -1.46
CG33331 + CG33332 [DRSC22928] | Wolbachia per cell robust z, rep 1 = -0.36; Wolbachia per cell robust z, rep 2 = 0.504; Wolbachia per cell robust z, rep 3 = 0.104
GluRIIA (Glutamate receptor IIA) [DRSC03334] | Wolbachia per cell robust z, rep 1 = 0.972; Wolbachia per cell robust z, rep 2 = 0.656; Wolbachia per cell robust z, rep 3 = 0.675
sncRNA:430a + sncRNA:430f + His2A:CG33835 + 42 more [DRSC25850] | Wolbachia per cell robust z, rep 1 = 3.63; Wolbachia per cell robust z, rep 2 = 6.1; Wolbachia per cell robust z, rep 3 = 8.99

2 entries already listed, arranged by “Wolbachia per cell robust z, rep 1”, lowest first:
CG34370 [DRSC04143] | Wolbachia per cell robust z, rep 1 = -0.882; Wolbachia per cell robust z, rep 2 = -0.242; Wolbachia per cell robust z, rep 3 = -1.1
CG34370 [DRSC04144] | Wolbachia per cell robust z, rep 1 = 0.546; Wolbachia per cell robust z, rep 2 = -1.13; Wolbachia per cell robust z, rep 3 = -1.01

The list goes on.
CG17684 [DRSC37825] | Wolbachia per cell robust z, rep 1 = -2.17; Wolbachia per cell robust z, rep 2 = -0.251; Wolbachia per cell robust z, rep 3 = 0.614
Jhbp7 (Juvenile hormone binding protein 7) [DRSC14408] | Wolbachia per cell robust z, rep 1 = 0.502; Wolbachia per cell robust z, rep 2 = -1.48; Wolbachia per cell robust z, rep 3 = 0.174
Jhbp7 (Juvenile hormone binding protein 7) [DRSC25905] | Wolbachia per cell robust z, rep 1 = 0.344; Wolbachia per cell robust z, rep 2 = 3.1; Wolbachia per cell robust z, rep 3 = 1.51
CG12320 [DRSC14498] | Wolbachia per cell robust z, rep 1 = 0.714; Wolbachia per cell robust z, rep 2 = 0.468; Wolbachia per cell robust z, rep 3 = 1.19
CR32010 + CR32011 + CR32009 + 1 more [DRSC21664] | Wolbachia per cell robust z, rep 1 = 0.867; Wolbachia per cell robust z, rep 2 = 0.614; Wolbachia per cell robust z, rep 3 = -0.887
Myt1 [DRSC11228] | Wolbachia per cell robust z, rep 1 = 1.3; Wolbachia per cell robust z, rep 2 = -0.0413; Wolbachia per cell robust z, rep 3 = 1.09
Myt1 [DRSC30071] | Wolbachia per cell robust z, rep 1 = 0.226; Wolbachia per cell robust z, rep 2 = -0.332; Wolbachia per cell robust z, rep 3 = -0.179
CG5895 [DRSC10554] | Wolbachia per cell robust z, rep 1 = 0.995; Wolbachia per cell robust z, rep 2 = 0.421; Wolbachia per cell robust z, rep 3 = 0.135
Dnz1 (DNZDHHC/NEW1 zinc finger protein 11) [DRSC03317] | Wolbachia per cell robust z, rep 1 = 1.08; Wolbachia per cell robust z, rep 2 = 0.4; Wolbachia per cell robust z, rep 3 = 0.771
Dnz1 (DNZDHHC/NEW1 zinc finger protein 11) [DRSC24926] | Wolbachia per cell robust z, rep 1 = -0.0997; Wolbachia per cell robust z, rep 2 = -1.19; Wolbachia per cell robust z, rep 3 = -0.525
CG10543 [DRSC23102] | Wolbachia per cell robust z, rep 1 = -0.143; Wolbachia per cell robust z, rep 2 = -0.0493; Wolbachia per cell robust z, rep 3 = 0.314
